Anti-infective test results gathered from many reports (values: NIAID ChemDB through PubChem).

Common to all: toxicity to cultured cells; cells: HEL; read-out: CC50

Conditions beyond the fields shown may differ between rows. Blank or dashed fields: not listed here. CCn: concentration that lowers growth or viability of the cells by n%.

structure	method	value
CCCCCCCCCCCC(c1cc(C)ccc1C)S(=O)(=O)c1cccc[n+]1[O-]	-	>20 µg/mL
NC1=NS(=O)(=O)N(Cc2ccccc2)c2nc[nH]c21	-	>50 µg/mL
CCCCC#Cc1cn(S(=O)(=O)c2ccc(C)cc2)c(=O)[nH]c1=O	-	61 µM
Cc1cc(Br)cn2c(CSCc3ccccc3)cnc12	-	>50 µg/mL
Nc1nc2c(ncn2[C@@H]2C[C@H](CO)[C@H]2CO)c(=O)[nH]1	-	19.8 µg/mL
Cc1ccc[n+]([O-])c1SC(C)c1ccccc1	-	60 µg/mL
Nc1ccn(CC[C@H](O)CCO)c(=O)n1	-	>400 µg/mL
O=c1[nH]c(=O)n([C@H]2C[C@H](O)[C@@H](CO)O2)cc1/C=C/Br	-	489 µM
CCCCCCCCCCc1cc2cn([C@H]3C[C@H](O)[C@@H](CO)O3)c(=O)nc2s1	-	54 µM
CC1=C[C@@H](n2cnc3c(N)ncnc32)[C@H](O)[C@@H]1O	-	50 µg/mL
Cc1ccc(C)c(CSc2ccc(Cl)c[n+]2[O-])c1	-	>100 µg/mL
O=C(O)P(=O)(O)O	-	504 µM
Cc1oc(NC(=O)C(F)(F)F)c(S(=O)(=O)c2ccc(Cl)cc2)c1C	-	46 µg/mL
CCCCCCCCCc1cc2cn([C@H]3C[C@H](O)[C@@H](CO)O3)c(=O)nc2o1	-	>200 µM
CN1c2ccc(Cl)cc2C(C)(C)C12C=Nc1c(ccc3ccccc13)O2	-	107.5 µM
Cc1cc(I)c2ncc(CSCCc3ccccc3)n2c1	-	>50 µg/mL
CCCCCCCCCCC#Cc1cn(S(=O)(=O)c2ccc(C)cc2)c(=O)[nH]c1=O	-	85 µM
Nc1nc2c(ncn2COC(CO)CO)c(=O)[nH]1	-	390 µM
O=S(Cc1ccc(F)cc1)c1cccc[n+]1[O-]	-	87 µg/mL
Cc1cc(-c2cccs2)cn2c(CSCCc3ccccc3)cnc12	-	32 µg/mL
N#CC1C(c2ccc(Cl)cc2)Nc2ccccc2S1(=O)=O	-	>50 µg/mL
Cc1cc(-c2cccs2)c2ncc(CSCCc3ccccc3)n2c1	-	>50 µg/mL
C[C@H](NC(=O)N1C(=O)C[C@]1(Cc1ccccc1)C(=O)OC(C)(C)C)c1ccccc1	-	164 µM
Nc1nc(N)c2ncn(CC(CO)OCP(=O)(O)O)c2n1	-	>200 µg/mL
CCCCCCCCc1cc2cn(C3CCCC3)c(=O)nc2o1	-	>200 µM
CCCCCCCCc1cc2cn([C@H]3C[C@H](O)[C@@H](CO)O3)c(=O)nc2s1	-	53 µM
Nc1ccn(C[C@@H](CO)OCP(=O)(O)O)c(=O)n1	-	351 µM
O=C(O)CP(=O)(O)O	-	344 µM
O=c1ccn(C/C=C/c2ccccc2)c(=O)n1Cc1cc(Cl)cc(Cl)c1	MTT	>100 µM
CCCCCCCOc1ccc(-c2cc3cn([C@H]4C[C@H](O)[C@@H](CO)O4)c(=O)nc3o2)cc1	-	>200 µM
CCCCCCCCC#Cc1cn(S(=O)(=O)c2ccc(C)cc2)c(=O)[nH]c1=O	-	31 µM
O=c1nc2oc(CCCCCCCCCI)cc2cn1[C@H]1C[C@H](O)[C@@H](CO)O1	-	200 µM
Cc1ccc(CSCc2cnc3c(Br)cc(Br)c(C)n23)cc1	-	>50 µg/mL
Oc1cccnc1SCc1ccccc1	-	35 µg/mL
COc1ccc(CSCc2cnc3c(Br)cc(Br)c(C)n23)cc1	-	>50 µg/mL
Cc1cc(-c2ccc(O)cc2)cn2c(CSCCc3ccccc3)cnc12	-	>50 µg/mL
Nc1nc2c(ncn2CC(CO)OCP(=O)(O)O)c(=O)[nH]1	-	10 µg/mL
O=C1NS(=O)(=O)N(COCCO)c2ccccc21	-	112 µg/mL
Cc1cc(-c2cccc(O)c2)cn2c(CSCCc3ccccc3)cnc12	-	50 µg/mL
Nc1ncnc2c1ncn2[C@@H]1C=C(CF)[C@H](O)[C@H]1O	-	200 µg/mL
Cc1c(Br)cc(Br)c2ncc(CSCc3ccco3)n12	-	>50 µg/mL
CSCC1=C[C@@H](n2cnc3c(N)ncnc32)[C@H](O)[C@@H]1O	-	9 µg/mL
O=[N+]([O-])c1ccc(CS(=O)(=O)c2cccc[n+]2[O-])cc1	-	7.6 µg/mL
CCCCCCc1cc2cnc(OC3CCCCC3)nc2o1	-	>50 µM
CC(=O)OCCOCN1C(=O)c2ccccc2NS1(=O)=O	-	>200 µg/mL
NC1=NS(=O)(=O)N(Cc2ccccc2)c2nc(Cc3ccccc3)[nH]c21	-	35 µg/mL
Cc1ccn2c(CSCc3ccccc3)c(C3CC3C)nc2c1	-	>50 µg/mL
COc1cc(/C=C(/C#N)Sc2cccc[n+]2[O-])cc(OC)c1OC	-	3.3 µg/mL
C[C@@H](NC(=O)N1C(=O)C[C@@]1(Cc1ccccc1)C(=O)O)c1ccccc1	-	>200 µM
Nc1nccc2c1ncn2C[C@@H](CO)OCP(=O)(O)O	-	90 µM
Nc1nc2c(ncn2COC(CO)CO)c(=O)[nH]1	MTT	132 µM
CN1c2ccccc2C(C)(C)C12C=Nc1c(ccc3ccccc13)O2	-	20.1 µM
CCCCCCCCCCc1cc2cn(CC3CCCCC3)c(=O)nc2o1	-	>200 µM
N#C/C(=C/c1ccc(Cl)cc1Cl)S(=O)(=O)c1cccc[n+]1[O-]	-	7.1 µg/mL
CCCCCCc1cc2cn([C@H]3C[C@H](O)[C@@H](CO)O3)c(=O)nc2o1	-	>200 µM
CCc1ccc(CS(=O)(=O)c2cccc[n+]2[O-])cc1	-	16 µg/mL
CCCOCN1c2ccccc2C(=O)NS1(=O)=O	-	>50 µg/mL
CCCCCCCCCCc1cc2cn([C@H]3C[C@H](O)[C@@H](CO)O3)c(=O)nc2o1	-	>50 µM
CCCCCCCc1cc2cn(C3CCCO3)c(=O)nc2o1	-	46 µM
Cc1c(Br)cc(Br)c2ncc(CSCc3ccc(Cl)cc3Cl)n12	-	>50 µg/mL
Nc1ncnc2c1ncn2[C@@H]1C[C@H](CO)[C@@H](O)[C@@H]1O	-	23 µM
CC1(C)[C@@H](CCO)C[C@H]1n1cnc2c(=O)[nH]c(N)nc21	-	>50 µg/mL
Nc1nc2c(ncn2CC[C@H](O)CCO)c(=O)[nH]1	-	>400 µg/mL
Cc1ccc(S(=O)(=O)n2cc(I)c(=O)[nH]c2=O)cc1	-	131 µM
Cc1cc(Br)cn2c(CSCCc3ccccc3)cnc12	-	28 µg/mL
CC1(C)[C@@H](CCO)C[C@H]1n1nnc2c(N)ncnc21	-	34 µg/mL
Cc1cc[n+]([O-])c(S(=O)(=O)Cc2ccc(Cl)cc2)c1	-	20 µg/mL
CC(=O)OCC(C)(O)C(C)C(C)C(OC(C)=O)C1OC12C(O)CC1C3CCC4CC(=O)CCC4C3CCC12COC(C)=O	MTT	>50 µg/mL
Nc1nc2ncn(CCOCP(=O)(O)O)c2c(=O)[nH]1	-	7 µg/mL
CC1(C)[C@@H](CO)CC[C@@]1(C)Cn1nnc2c(=O)[nH]cnc21	-	>50 µg/mL
N#CC1=C(c2ccccc2)Nc2sccc2S1(=O)=O	-	>50 µg/mL
CC1(C)[C@@H](CCO)C[C@H]1n1cnc2c(=O)[nH]cnc21	-	>50 µg/mL
CCCCCCCCCCCc1cc2cn([C@H]3C[C@H](O)[C@@H](CO)O3)c(=O)nc2o1	-	>200 µM
CCCCCCCCCCc1cc2cnc(OC3CCCCC3)nc2o1	-	>200 µM
O=c1ccn(C/C=C/c2ccccc2)c(=O)n1Cc1cccc2ccccc12	MTT	>100 µM
Cc1ccc(C)c(C(Br)S(=O)(=O)c2cccc[n+]2[O-])c1	-	16 µg/mL
CN1c2ccc(Cl)cc2C(C)(C)C12C=Cc1cc([N+](=O)[O-])ccc1O2	-	8.9 µM
Cc1cccc(C(C#N)S(=O)c2cccc[n+]2[O-])c1	-	<0.2 µg/mL
CCCCCCCCCCc1cc2cn(C3CCCO3)c(=O)nc2o1	-	>200 µM
CC(=O)OC(C(C)C(C)C(C)(C)OC(C)=O)C1OC12C(O)CC1C3CCC4CC(=O)CCC4C3CCC12CO	MTT	>50 µg/mL
C/C(=C\CCC1(C)C=Cc2cc(O)cc(C)c2O1)CC/C=C(\C)CC[C@@H](C)C(C)(C)O	-	22 µM
CCCCCCCc1cc2cn([C@H]3C[C@H](O)[C@@H](CO)O3)c(=O)nc2o1	-	>50 µM
c1ccc(CSc2ccccn2)cc1	-	51 µg/mL
CCCCCCCCCCc1cc2cnc(OC3CCCC3)nc2o1	-	>200 µM
CO[C@H](CO)[C@@H](O)CCn1cnc2c(=O)[nH]c(N)nc21	-	>400 µg/mL
CC1(C)[C@@H](CO)CC[C@@]1(C)Cn1cnc2c(Cl)ncnc21	-	>50 µg/mL
CCCCc1cc2cn(C3CCCC3)c(=O)nc2o1	-	>200 µM
Cc1cc(-c2ccsc2)cn2c(CSCCc3ccccc3)cnc12	-	>50 µg/mL
CC(C)(C)OC(=O)C1(Cc2ccccc2)CCN1C(=O)OCc1ccccc1	-	34 µM
CN1c2ccc([N+](=O)[O-])cc2C(C)(C)C12C=Cc1cc([N+](=O)[O-])ccc1O2	-	18.5 µM
O=c1[nH]c(=O)n([C@@H]2O[C@H](CO)[C@@H](O)[C@@H]2O)cc1/C=C/Br	-	>200 µg/mL
O=c1[nH]c(=O)n([C@H]2C[C@H](O)[C@@H](CO)O2)cc1F	-	0.017 µM
Cc1cccc(CSCc2cnc3c(Br)cc(Br)c(C)n23)c1	-	35 µg/mL
C[C@H](NC(=O)N1C(=O)C[C@@]1(Cc1ccccc1)C(=O)O)c1ccccc1	-	187 µM
CCCCCCCCCc1cc2cn([C@H]3C[C@H](O)[C@@H](CO)O3)c(=O)nc2s1	-	>20 µM
Cc1ccc(C)c(C(C)S(=O)(=O)c2c(Cl)ccc[n+]2[O-])c1	-	1.7 µg/mL
CO[C@H](CO)[C@@H](O)CCn1cnc2c(N)ncnc21	-	>400 µg/mL
CCCCCCCCCCC#Cc1c[nH]c(=O)[nH]c1=O	-	>200 µM
Cc1cc(-c2ccccc2)c2ncc(CSCCc3ccccc3)n2c1	-	33 µg/mL
CC(C)(C)OC(=O)C1(Cc2ccccc2)CC(=O)N1C(=O)Nc1ccccc1	-	118 µM
Cc1ccc(C)c(C(C)S(=O)(=O)c2cccc[n+]2[O-])c1	-	50 µg/mL
Nc1ccn(C[C@@H](CO)OCP(=O)(O)O)c(=O)n1	-	360 µM
COc1ccc(CS(=O)c2cccc[n+]2[O-])cc1OC	-	1.3 µg/mL
Cc1c(Br)cc(Br)c2ncc(CSCc3ccc(F)cc3)n12	-	>50 µg/mL
Cc1c(Cl)ccc(C(C)S(=O)c2cccc[n+]2[O-])c1Cl	-	0.09 µg/mL
CCCCCCCCCCc1cc2cnc(OCc3ccc(C)cc3)nc2o1	-	>200 µM
COc1cccnc1SCc1ccccc1	-	>20 µg/mL
CCCCCCCCCCc1cc2cnc(OC3CCCC3)nc2o1	-	>200 µM
CCCCCCCCCCc1cc2cnc(OCCCC)nc2o1	-	>200 µM
O=c1[nH]c(=O)n([C@@H]2O[C@H](CO)[C@@H](O)[C@@H]2O)cc1/C=C/Br	-	1000 µM
CC1(C)[C@@H](CO)CC[C@@]1(C)Cn1cnc2c(=O)[nH]cnc21	-	>50 µg/mL
O=C1c2ccccc2N(Cc2ccccc2)S(=O)(=O)N1COCc1ccccc1	-	≥40 µg/mL
Cc1ccn2c(CSCc3ccccc3)c(-c3ccco3)nc2c1	-	>50 µg/mL
O=S(=O)(Cc1c(Cl)ccc(Cl)c1Cl)c1cccc[n+]1[O-]	-	6.5 µg/mL
Nc1ccn(C[C@@H](CO)OCP(=O)(O)O)c(=O)n1	-	50 µg/mL

The last 14 rows once more:

structure | method | value
Nc1ccn(C[C@@H](CO)OCP(=O)(O)O)c(=O)n1 | - | 360 µM
COc1ccc(CS(=O)c2cccc[n+]2[O-])cc1OC | - | 1.3 µg/mL
Cc1c(Br)cc(Br)c2ncc(CSCc3ccc(F)cc3)n12 | - | >50 µg/mL
Cc1c(Cl)ccc(C(C)S(=O)c2cccc[n+]2[O-])c1Cl | - | 0.09 µg/mL
CCCCCCCCCCc1cc2cnc(OCc3ccc(C)cc3)nc2o1 | - | >200 µM
COc1cccnc1SCc1ccccc1 | - | >20 µg/mL
CCCCCCCCCCc1cc2cnc(OC3CCCC3)nc2o1 | - | >200 µM
CCCCCCCCCCc1cc2cnc(OCCCC)nc2o1 | - | >200 µM
O=c1[nH]c(=O)n([C@@H]2O[C@H](CO)[C@@H](O)[C@@H]2O)cc1/C=C/Br | - | 1000 µM
CC1(C)[C@@H](CO)CC[C@@]1(C)Cn1cnc2c(=O)[nH]cnc21 | - | >50 µg/mL
O=C1c2ccccc2N(Cc2ccccc2)S(=O)(=O)N1COCc1ccccc1 | - | ≥40 µg/mL
Cc1ccn2c(CSCc3ccccc3)c(-c3ccco3)nc2c1 | - | >50 µg/mL
O=S(=O)(Cc1c(Cl)ccc(Cl)c1Cl)c1cccc[n+]1[O-] | - | 6.5 µg/mL
Nc1ccn(C[C@@H](CO)OCP(=O)(O)O)c(=O)n1 | - | 50 µg/mL